Laboratory results reported in article PMC6711530, “Identification of zinc and Zur-regulated genes in Corynebacterium diphtheriae”.
For at least one entry, the source does not settle the construct or the ends of the probe. Weaker means in comparison with the reference protein, sequence or condition of that experiment. Where a protein sequence is shown, tags need not be part of it. At least one verdict was read from the data and is not stated in words by the source.

Target: T1, Zur (zinc uptake regulator) (UniProt Q6NG23)
T1 sequence (looked up, limits assumed): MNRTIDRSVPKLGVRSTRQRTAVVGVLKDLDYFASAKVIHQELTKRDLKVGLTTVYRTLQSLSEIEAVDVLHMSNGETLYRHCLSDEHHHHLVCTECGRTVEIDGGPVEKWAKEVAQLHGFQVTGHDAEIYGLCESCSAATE
Assay: EMSA
Details: 100 nM Zur, 1 nM oligo duplex, 10 mM Tris pH 7.5, 55 mM KCl, 1 mM DTT, 10% glycerol, 0.05% NP-40, 100 ug/ml BSA, 0.03 ug/ml salmon sperm DNA, recombinant protein, protein details: His-tag (pET30a), label: 5' biotin on strand 1

Sequence	binding result (5 uM ZnCl2)	binding result (no added zinc)	binding result (EDTA up to 250 uM)
CCCTGGTATTGGTTATCTTTTTCATTTTCCGGG (double strand) [dip0442 site]	binds	–	–
GGGCCCTAATTGCAGACTTTTTCATTAACTCCC (double strand) [dip2162 site]	binds	–	–
CCCTGCACATGACAATCGTTGCCTATAGTGGGG (double strand) [iutE (dip0173) site]	binds	–	–
CCCAATTATCGGTAATTATTTTCATTAAAAGGG (double strand) [cmrA (dip2325) site]	binds	binds	–
CCCTACTAAAGCACATGATTTCCATTAATGGGG (double strand) [dip0092-0093 site]	binds	–	–
CCCTGCAAGTGGTAATTATTTTCAACAATGGGG (double strand) [sidA (dip2161) site]	binds	–	–
CCCAATAAGTGAAAACGGTATCCATTAAGGGGG (double strand) [zrg (dip1486) site]	binds	–	–
CCCTTGAAATGAGAATGATTATCCGTATGGGGG (double strand) [dip0013 site]	binds	–	–
CCCCCCTATTGGAATCCGATGTCAATTAACGGG (double strand) [cmrA2 (dip1724) site]	binds	–	–
CCCTTCTAATGGTACCTATTTTCAATAGGTGGG (double strand) [adhA (dip2114) site]	binds	binds	–
CCCCGTTATTGAAAATGTTGTGCAGTGGTGGGG (double strand) [dip2128 site]	binds	–	–
GGGTCGCAATAAGATTCATTTTCATGACTACCC (double strand) [iutA (dip0169) Zur site]	binds	binds	binds more weakly
CCCCAATAATGAAAATGATTGTGATGTGCAGGG (double strand) [troA (dip0438) site]	binds	binds	binds more weakly
CCCGTTTAGTGCGAACTAATTTCATTATGCGGG (double strand) [dip1087 site]	binds	–	–
